From PubChem BioAssay AID602399 (Sanford-Burnham Center for Chemical Genomics, 2012) come the findings set out here.

This is a selection; strong and weak results do not stand in their true shares. Activity calls are given as the source filed them. Cut-off read from the data, not from the text of the source: active = inhibition above about 26%; inactive = the rest.

The test system of the test is Nicotinate-nucleotide adenylyltransferase NadD (Staphylococcus aureus N315). Briefly: inhibitors of S. aureus NadD, primary screen, biochemical, colorimetric, uHTS (AID 602399). The note with it: purified NadD enzyme, colorimetric absorbance read-out; at 20 µM; stronger effect = higher value.
For orientation: inhibition means the drop in the measured response relative to a control, in per cent. As to `O=[N+]([O-])c1ccc(O)c(/C=N/Nc2ccc([N+](=O)[O-])cc2[N+](=O)[O-])c1`, the inhibition was inactive: 6.79%. Under `O=[N+]([O-])c1ncn(CCn2cnc([N+](=O)[O-])n2)n1` stands inactive: -1.42%; under `CC(=O)NC(SC(=S)N(C)C)C(Cl)(Cl)Cl` (centres undefined), inactive: -6.38%; under `O=[As](O)(c1ccccc1)c1ccc(O)cc1`, inactive: -9.96%. Turning to `C(Cc1nn[nH]n1)Cc1nn[nH]n1`, the inhibition was inactive: -5.54%. In the case of `Nc1ccc([As](=O)(O)c2ccc([N+](=O)[O-])cc2)cc1`, the inhibition is inactive: -3.95%. On to `O=C(OC1CN2CCC1CC2)c1cccc(Cl)c1` (centres undefined), for which the inhibition was inactive: 4.52%. Under `COc1ccc(N)c([N+](=O)[O-])c1[N+](=O)[O-]` stands inactive: -0.468%; under `Nc1ccc(CCCCOc2ccccc2)cc1`, inactive: 0.409%; under `O=P(Nc1ccccn1)(c1ccc(Br)cc1)c1ccc(Br)cc1`, inactive: 3.96%. Regarding `CN(C)C1(CNC(=O)c2ccc(Cl)c(S(N)(=O)=O)c2)CCCCC1`, the inhibition is inactive: -7.57%.

On to `C[C@H]1OP(=O)(Oc2ccccc2)[C@H](O)[C@H](O)[C@H]1N=[N+]=[N-]` (some centres undefined), for which the inhibition was inactive: 1.89%. On to `O=P(Nc1nc2ccccc2s1)(c1ccccc1)c1ccccc1`, for which the inhibition was inactive: -0.628%.

Regarding `CC(C)C(=O)NC(Sc1ccccc1)C(Cl)(Cl)Cl` (centres undefined), the inhibition is inactive: 6.49%. As to `O=P(Nc1nccs1)(c1ccccc1)c1ccccc1`, the inhibition was inactive: 0.636%. The value for `c1nnnn1CCn1cnnn1` was inactive: 6.41%. For the molecule `COC(=O)C1(C)COP(=O)(NCc2ccccc2)OC1` (centres undefined), the inhibition was inactive: -2.76%.

Take `CC(=O)c1ccc(N2CC2c2ccncc2)cc1` (centres undefined): the inhibition is inactive: -6.58%. Consider `N#C/C(=C\c1ccc(N(CCBr)CCBr)cc1)C(N)=O`, for which the inhibition is inactive: -3.08%. Under `C[C@H]1OP(=O)(Oc2ccccc2)C[C@@H]2O[C@@H]21` (some centres undefined) stands inactive: -4.08%. The value for `C[C@@H]1C=CCP(=O)(Oc2ccccc2)O1` (some centres undefined) was inactive: -2.65%; that for `Cc1ccccc1CN(C)C(=O)COC(=O)C(O)(c1ccccc1)c1ccccc1` was inactive: -8.39%. Under `CC(=O)Nc1ccc(Oc2c([N+](=O)[O-])cc([N+](=O)[O-])cc2[N+](=O)[O-])cc1` stands inactive: 7.34%; under `CC(=O)Nc1ccc([As](=O)(O)O)c(O)c1`, inactive: -2.35%. With `CCOc1ccc(C2=NCC(CBr)S2)cc1` (centres undefined), the inhibition was inactive: -1.73%. Consider `O=P1(Nc2nc3ccc(Cl)cc3s2)COc2ccccc2O1` (centres undefined), for which the inhibition is inactive: -0.515%. Under `CCc1cc(O)c([N+](=O)[O-])c(C)c1[N+](=O)[O-]` stands inactive: -0.877%. Under `CC(C)(C)C(=O)NC(Sc1ccccc1)C(Cl)(Cl)Cl` (centres undefined) stands inactive: -4.39%; under `Cc1ccc(OP(=O)(Nc2ccccn2)Oc2ccc(C)cc2)cc1`, inactive: -1.14%; under `CC(=O)NC(SC(=S)N(CC(C)C)CC(C)C)C(Cl)(Cl)Cl` (centres undefined), inactive: -2.96%.

Regarding `COC(=O)c1cc2c(s1)N=C(c1ccccc1)N(C)P2(=O)N1CCOCC1` (centres undefined), the inhibition was inactive: -1.29%. With `CCC(=O)N1C2C3N(C(=O)CC)C1C1N(C(=O)CC)C(C(N1C(=O)CC)N3C(=O)CC)N2C(=O)CC`, the inhibition is inactive: 3.3%.

In the case of `O=C(OC1CN2CCC1CC2)c1ccccc1` (centres undefined), the inhibition is inactive: -1.61%.

Take `O=c1c2cc([N+](=O)[O-])ccc2[nH]c2c([N+](=O)[O-])cc([N+](=O)[O-])cc12`: the inhibition was inactive: -1.95%. Under `CN(C)C(=O)Oc1noc2ccccc12` stands inactive: 0.643%. With `CC(NC(=O)COC(=O)C(O)(c1ccccc1)c1ccccc1)c1ccccc1` (centres undefined), the inhibition is inactive: -3.04%. Take `Cc1ccccc1OP(=O)(Nc1ccccn1)Oc1ccccc1C`: the inhibition was inactive: -0.566%.

For `CCNC(=S)/N=C(\N)N[N+](=O)[O-]`, the inhibition is inactive: -0.177%. Regarding `O=C(NC1CCS(=O)(=O)C1)NP(=S)(Oc1ccccc1)Oc1ccccc1` (centres undefined), the inhibition was inactive: -9.56%. Consider `Cc1ccc(NP(=O)(Oc2cccc(C)c2)Oc2cccc(C)c2)nc1`, for which the inhibition was inactive: 4.29%. The value for `c1ccc(-c2nn[nH]n2)c(-c2nn[nH]n2)c1` was inactive: -4.53%; that for `O=P1(N(CCCl)CCCl)OCCC2CCCCN21` (centres undefined) was inactive: 2.59%. For `CCN(N=Nc1nonc1N)c1nonc1N`, the inhibition is inactive: 0.552%. The value for `Nc1cccc2ccc([As](=O)(O)O)cc12` was inactive: -1.62%; that for `CCCC1OP(N)(=O)OCC1CC` (centres undefined) was inactive: 0.79%. Under `CC(=O)Nc1ccc([As](=O)(O)O)cc1` stands inactive: 1.97%; under `O=C(O)c1ccccc1[As](=O)(O)O`, inactive: -2.66%; under `O=P(Nc1nc2ccc(Cl)cc2s1)(c1ccccc1)c1ccccc1`, inactive: 5.65%. `CN(C)P(=O)(N(C)C)n1c(Nc2ccccc2)nnc1-c1ccccc1`: the inhibition was inactive: -5.32%. Under `Cc1ccc(NP(=O)(Oc2ccccc2F)Oc2ccccc2F)nc1` stands inactive: 1.72%. Turning to `CN(C(=O)Cc1ccc(Cl)c(Cl)c1)[C@H]1CCCC[C@@H]1N1CCCC1`, the inhibition is inactive: -2.31%.

Turning to `Cc1cc(SC(NC(=O)c2ccc(F)cc2)C(Cl)(Cl)Cl)ncn1` (centres undefined), the inhibition was inactive: -3.22%. In the case of `CCOP(=O)(Nc1ccccc1)OCC`, the inhibition is inactive: -0.986%. Consider `Nc1cc(N)c2nonc2c1[N+](=O)[O-]`, for which the inhibition is inactive: -5.18%. On to `CC(C)CC(=O)NC(Sc1ccc(Cl)cc1)C(Cl)(Cl)Cl` (centres undefined), for which the inhibition was inactive: 0.849%. Consider `O=C(NC(Sc1ccncn1)C(Cl)(Cl)Cl)c1ccccc1` (centres undefined), for which the inhibition is inactive: -5.35%.

For the molecule `Oc1ccccc1CNc1ccccn1`, the inhibition was inactive: -6.14%. Turning to `O=[N+]([O-])C1C(O)C(O)C([N+](=O)[O-])C(O)C1O` (centres undefined), the inhibition is inactive: 6.63%. Consider `NC(=O)c1cc([N+](=O)[O-])cc([N+](=O)[O-])c1N`, for which the inhibition was inactive: -3.67%. The value for `Cc1ccc(N/C(=N/P(=O)(N2CCOCC2)N2CCOCC2)N2CCOCC2)cc1` was inactive: -6.59%; that for `CN(C(=O)Cc1ccc(Cl)c(Cl)c1)[C@H]1CCCC[C@H]1N1CCCC1` was inactive: 0.563%. As to `Cc1ccc(OP(=O)(Nc2nccs2)Oc2ccc(C)cc2)cc1`, the inhibition is inactive: -7.66%. In the case of `COc1ccccc1OP(=O)(Nc1ccc(C)cn1)Oc1ccccc1OC`, the inhibition was inactive: -8.19%. As for `CN1CCCC(OC(=O)C(c2ccccc2)c2ccccc2)C1` (centres undefined), the inhibition was inactive: -3.4%.
